SMILES strings stand for the structures.

This is an account of results in patent US7256028B2, “Methods for screening compounds that modulate lipid metabolism” (Xenon Genetics Inc., priority 2000, dated 2007).

The subject of data set [1] is spheroplasts of Saccharomyces cerevisiae. Nature of the data set: Cell density (O.D.600) and substrate radioactivity recovered in spheroplasts incubated with inhibitor. The text has this: Total lipids were extracted and analyzed as described in Example 6.
Data set [2] has as its system whole cells of Saccharomyces cerevisiae. Description: Cell density (O.D.600) and substrate radioactivity recovered in whole yeast incubated with inhibitor. It counts as cell-based.

Consider `CCCOC(=O)c1cc(O)c(O)c(O)c1` [n-propyl gallate, 3,4,5-Trihydoxybenzoic acid propyl ester], for which the “% radioactivity recovered” value is given as 9.5% in data set [1] (n-propyl gallate 0.25 mM, pTh5009.1, without inhibitor 9.0); 9.0% in data set [1] (n-propyl gallate 0.25 mM, pYr5014.1, without inhibitor 10.7); 9.5% in data set [1] (n-propyl gallate 0.50 mM, pTh5009.1); 9.8% in data set [1] (n-propyl gallate 1.00 mM, pTh5009.1); 8.3% in data set [1] (n-propyl gallate 1.00 mM, pYr5014.1); 9.3% in data set [1] (n-propyl gallate 2.00 mM, pTh5009.1). Moreover, the “% radioactivity recovered” value was 8.6% in data set [1] (n-propyl gallate 2.00 mM, pYr5014.1); 8.9% in data set [1] (n-propyl gallate 4.00 mM, pTh5009.1); 7.6% in data set [1] (n-propyl gallate 4.00 mM, pYr5014.1); 4.9% in data set [1] (n-propyl gallate 8.00 mM, pTh5009.1); 3.6% in data set [1] (n-propyl gallate 8.00 mM, pYr5014.1); 0.5% in data set [2] (n-propyl gallate 1.7 mM, pTh5009.1, without inhibitor 0.5). Besides, the “% radioactivity recovered” value was 0.8% in data set [2] (n-propyl gallate 3.5 mM, pTh5009.1); 0.7% in data set [2] (n-propyl gallate 7.0 mM, pTh5009.1); 0.9% in data set [2] (n-propyl gallate 7.0 mM, pYr5014.1, without inhibitor 0.5); 0.6% in data set [2] (n-propyl gallate 14.0 mM, pYr5014.1). For the same compound, the “effect on uptake of substrate (radioactivity recovered in cells)” value in data set [1] (n-propyl gallate between 0.7-4.0 mM) is “not affecting the uptake of substrate”.
